# Measured values from ChEMBL document CHEMBL4196223 (J Med Chem, 2018).
# Species: Mus musculus
# Experiment: Antagonist activity at mouse alpha1beta1deltaepsilon nACHR expressed in Xenopus laevis oocytes assessed as inhibition of acetyl choline-induced membrane currents at 10 uM pre-incubated for 5 mins prior to acetyl choline pulse at -70 mV potential by two-electrode voltage clamp assay
structure (smiles),measurement,value
CC[C@H](C)[C@@H]1NC(=O)[C@@H]2CCCN2C(=O)[C@H](CO)NC(=O)[C@H](CCSC)NC(=O)[C@H](C)NC(=O)[C@H](CCCCN)NC(=O)[C@@H]2CSSC[C@H](NC(=O)CN)C(=O)N[C@@H](CSSC[C@@H](C(N)=O)NC1=O)C(=O)N[C@@H](CO)C(=O)N[C@@H](Cc1cnc[nH]1)C(=O)N1CCC[C@H]1C(=O)N[C@@H](C(C)C)C(=O)N2,inhibition,< 50%
